Results of unrelated studies side by side (data: NIAID ChemDB).

Shared fields: cytotoxicity tests; cell line: ATH8; measure: CC50

CCn is the concentration with n% toxicity to the cells. Neighbouring rows are from separate reports.

smiles	result
OC[C@H]1C[C@@H](n2cnc3c(=S)nc[nH]c32)CO1	>100 µM
O=c1ccn([C@H]2C[C@H](F)[C@@H](CO)S2)c(=O)[nH]1	>80 µM
Cc1ccc(C(=O)Nc2ccc(S(=O)(=O)O)c3cc(S(=O)(=O)O)cc(S(=O)(=O)O)c23)cc1NC(=O)c1cccc(NC(=O)Nc2cccc(C(=O)Nc3cc(C(=O)Nc4ccc(S(=O)(=O)O)c5cc(S(=O)(=O)O)cc(S(=O)(=O)O)c45)ccc3C)c2)c1	>50 µg/mL
OC[C@H]1C[C@@H](n2cnc3c(F)ncnc32)CO1	>100 µM
Nc1nc2c(ncn2C2CC(CO)C2)c(=O)[nH]1	~75 µM
Nc1nc(=S)c2ncn([C@H]3CO[C@@H](CO)C3)c2[nH]1	>100 µM
Nc1ccn([C@H]2C[C@@H](F)[C@@H](CO)S2)c(=O)n1	>80 µM
Nc1ncnc2c1ncn2[C@H]1CC[C@@H](CO)O1	>200 µM
Nc1ncnc2c1ncn2[C@@H]1O[C@H](CO)C[C@@H]1F	>200 µM
O=c1ccn([C@@H]2S[C@H](CO)C[C@@H]2F)c(=O)[nH]1	>80 µM
NCCOP(=O)(O)OP(=O)(O)OC[C@@H]1CC[C@H](n2ccc(N)nc2=O)O1	>100 µM
OC[C@H]1C[C@@H](n2cnc3cncnc32)CO1	>100 µM
Nc1ccn([C@H]2C[C@H](F)[C@@H](CO)S2)c(=O)n1	>80 µM
CSc1ncnc2c1ncn2[C@H]1CO[C@@H](CO)C1	>100 µM
Nc1ccn([C@@H]2S[C@H](CO)C[C@@H]2F)c(=O)n1	>80 µM

Repeating the final 2 entries:

| smiles | result |
|---|---|
| CSc1ncnc2c1ncn2[C@H]1CO[C@@H](CO)C1 | >100 µM |
| Nc1ccn([C@@H]2S[C@H](CO)C[C@@H]2F)c(=O)n1 | >80 µM |